Measured values from several laboratories, pooled; numbers as filed in NIAID ChemDB.

All rows: growth or infection tests; organism: Mycobacterium tuberculosis

A number after MIC or MFC names an inhibition level or a share of isolates.

compound | changes | read-out | tested at | read by | strain or isolate | value
CC(c1ccccc1)C1(C)NC(=O)NC1=O | - | MIC | - | BACTEC | H37Rv | ≥12.5 µg/mL
O=[N+]([O-])/C=C/c1ccc(Oc2cc(/C=C/[N+](=O)[O-])ccc2O)cc1 | - | MIC | - | - | H37Rv | 31.25 µg/mL
CCCCCCSc1ccnc(C(N)=S)c1 | - | MIC | - | - | H37Rv | 15 µM
O=C(NNC(=S)Nc1ccc([N+](=O)[O-])cc1)c1ccncc1 | - | MIC | - | - | INH resistant | 1.2 µM
CC(C)(C)Sc1ccnc(C(N)=S)c1 | - | MIC | - | - | H37Rv | 30 µM
C=CC(=C)CCC1C(C)CCC2[C@]1(C)CCC(OC(C)=O)[C@]2(C)C(=O)O | - | MIC | - | - | H37Rv | 14.4 µg/mL
COc1cc(/C=C/C(=O)O)cc(Oc2ccc(/C=C/C(=O)O)cc2)c1OC(C)=O | - | MIC | - | - | H37Rv | 125 µg/mL
C[C@H]1CC[C@@H]2[C@]1(C)CC[C@@]1(C)CC[C@@](C)(O)[C@@H]3C[C@@]231 | - | MIC | - | - | H37Rv | 20 µg/mL
NC(=S)c1cc(SC2CCCCC2)ccn1 | - | MIC | - | - | H37Rv | 60 µM
CO[C@H]1/C=C/O[C@@]2(C)Oc3c(C)c(O)c4c(O)c(c(/C=N/N5CCN(C)CC5)c(O)c4c3C2=O)NC(=O)/C(C)=C\C=C\[C@H](C)[C@H](O)[C@@H](C)[C@@H](O)[C@@H](C)[C@H](OC(C)=O)[C@@H]1C | - | MIC99 | - | turbidity | H37Rv | 1 µg/mL
COc1ccc(-c2nn(-c3ccccc3)cc2C2C3=C(NC(C)(c4cc(O)c(I)cc4Cl)NC3=O)Oc3c2c(C)nn3-c2ccccc2)cc1 | - | MIC | - | agar diffusion / agar | MTCC 300 | 100 µg/mL
NNC(=O)c1ccncc1 | - | MIC | - | - | Isolate C | 0.062 µg/mL
CSc1nc(C(N)=O)cnc1CC(C)C | - | inhibition | 12.5 µg/mL | - | H37Rv | <90%
CCCCCCCSc1ccnc(C(N)=S)c1 | - | MIC | - | - | H37Rv | 15 µM
CCOC(=O)NC(=S)Nc1ccn(C)c1 | - | MIC bound | - | BACTEC | H37Rv | >6.25 µg/mL
NNC(=O)c1ccncc1 | - | MIC | - | - | WT | 0.72 µM
CC1CN(c2cc3c(cc2F)c(=O)c(C(=O)O)cn3C(C)(C)C)CCN1 | - | MIC | - | - | - | 0.39 µg/mL
O=[N+]([O-])c1ccc(N2CCN(Cc3ccccc3)CC2)c2c1no[n+]2[O-] | - | MIC | - | BACTEC | H37Rv | 0.78 µg/mL
COC(=O)c1ccc(Oc2cc(C=O)cc(OC)c2O)cc1 | - | MIC | - | - | H37Rv | 31.25–500 µg/mL
Cc1nc(-c2cccs2)c2ccn([C@@H]3O[C@H](CO)C(O)C3O)c2n1 | - | MIC | - | MTT | My 331/88 | >250 µM
CO[C@@]12[C@H](COC(N)=O)C3=C(C(=O)C(C)=C(N)C3=O)N1C[C@H]1[C@@H]2N1C(=O)C1N2C(=O)[C@@H](NC(=O)Cc3ccccc3)[C@H]2SC1(C)C | - | MIC bound | - | BACTEC | H37Rv | ≤12.5 µg/mL
COc1ccc(C)cc1NCc1cnc2nc(N)nc(N)c2c1C | - | MIC | - | - | H37Rv | 6.25 µg/mL
OC[C@H]1O[C@@H](n2ccc3c(-c4cccs4)nc(Cl)nc32)C(O)C1O | - | MIC | - | MTT | My 331/88 | 125 µM
CCC(C)Sc1ccnc(C(N)=S)c1 | - | MIC | - | - | H37Rv | 60 µM
Cc1nc(Cl)nc2c1ccn2[C@@H]1O[C@H](CO)C(O)C1O | - | MIC | - | MTT | My 331/88 | >250 µM
C[C@@H]1CC[C@]2(C(=O)O)CC[C@]3(C)C(=CC[C@@H]4[C@@]5(C)C[C@@H](O)[C@H](O)C(C)(C)[C@@H]5CC[C@]43C)[C@@H]2[C@]1(C)O | - | MIC | - | - | H37Rv | 32 µM
O=C(NNC(=S)Nc1ccc(Cl)cc1)c1ccncc1 | - | MIC | - | - | WT | 2.54 µM
CC1CN(c2nc3c(cc2F)c(=O)c(C(=O)O)cn3C(C)(C)C)CCN1 | - | MIC | - | - | - | 0.78 µg/mL
CCCCc1ncc(C(N)=O)nc1SC | - | inhibition | 12.5 µg/mL | - | H37Rv | <90%
C=C1CC[C@@H](O)[C@]2(C)CC[C@@H](C(C)CO)[C@H](O)[C@@H]12 | - | MIC | - | - | H37Rv | >128 µg/mL
CC1=C(C)C(=O)C(C(C)(C)CC(=O)n2cc(F)c(=O)[nH]c2=O)=C(C)C1=O | - | inhibition | 128 µg/mL | BACTEC | H37Rv | 100%
Cc1nn(-c2ccccc2)c2c1C(c1cn(-c3ccccc3)nc1-c1ccc(Cl)cc1)C1=C(NC(C)(c3cc(O)ccc3Cl)NC1=O)O2 | - | MIC | - | agar diffusion / agar | MTCC 300 | 1000 µg/mL
NC1=NN(c2ccccc2)C(=O)C1C(=O)C(=O)Nc1nccs1 | - | inhibition | 6.25 µg/mL | resazurin | H37Rv | 48%
O=Cc1ccc(O)c(Oc2ccc(C=O)cc2[N+](=O)[O-])c1 | - | MIC | - | - | H37Rv | 125 µg/mL
[Cl][Co][Cl] | - | MIC | - | resazurin | H37Rv | >105 µM
CC(=O)O[C@H]1CC2C(C)(C)CCC[C@]2(C)C2CCC3[C@@]4(C)CC[C@H](C(C)(C)O)C4CC[C@@]3(C)[C@@]21C | - | MIC | - | - | H37Rv | >128 µM
COc1nc2ccc(Br)cc2cc1[C@@H](c1ccccc1)[C@@](O)(CCN(C)C)c1cccc2ccccc12 | - | MIC | - | - | H37Rv | 0.03 µg/mL
C[C@@H]1CN(c2c(F)c(N)c3c(=O)c(C(=O)O)cn(C4CC4)c3c2F)C[C@H](C)N1 | - | MIC | - | broth dilution / visual reading | H37Rv | 0.2 µg/mL
Cc1cc(O)c2c(c1)C(=O)C13C(=C2O)C(=O)C2C(O)C1C1C(O)C3C(=O)C3=C(O)c4c(O)cc(C)cc4C(=O)C321 | - | MIC | - | BACTEC | H37Rv | ≥12.5 µg/mL
CN(C)c1ccc(C2C(Cl)C(=O)N2NC(=O)c2ccccc2-c2nc3ccccc3[nH]2)cc1 | - | inhibition | 0.031 µg/mL | - | H37Rv | 7%
Cc1nc(F)nc2c1ccn2[C@@H]1O[C@H](CO)C(O)C1O | - | MIC | - | MTT | My 331/88 | 250 µM
O=C(N/N=C/C=C/c1ccccc1)c1ccccc1-c1nc2ccccc2[nH]1 | - | inhibition | 0.031 µg/mL | - | H37Rv | 50%
COc1ccc(OC)c(NCc2cnc3nc(N)nc(N)c3c2C)c1 | - | MIC | - | - | H37Rv | 12.5 µg/mL
O=c1c(Nc2ccccc2)cn(C2C=CC(O)C2)c(=O)n1C1C=CC(O)C1 | - | MIC99 | - | turbidity | H37Rv | 40 µg/mL
Nc1nc(N)c2nc3c(ccc4ccccc43)nc2n1 | - | inhibition | 12.5 µg/mL | BACTEC | H37Rv | 99%
CC(C)(C)c1ncc(C(N)=O)nc1Sc1ccccc1 | - | inhibition | 12.5 µg/mL | - | H37Rv | <90%
COC1=C(Br)[C@@H](O)[C@]2(C=C1Br)CC(C(=O)NCCCCNC(=O)C1=NO[C@]3(C=C(Br)C(OC)=C(Br)[C@@H]3O)C1)=NO2 | - | MIC | - | - | H37Rv | 12.5 µg/mL
CC(C)=CCC/C(C)=C\CO | - | MIC | - | - | H37Rv | 128 µg/mL
CC1COc2c(N3CCN(C)CC3)c(F)cc3c(=O)c(C(=O)O)cn1c23 | - | MIC50 | - | - | 79 strains (drug-susceptible) | 0.27 µg/mL
Cc1ccc(C)c(N=Nc2sc(N)nc2-c2ccccc2)c1 | - | inhibition | 6.25 µg/mL | BACTEC | H37Rv | 91%
OC[C@H]1O[C@@H](n2ccc3c(-c4cc5ccccc5o4)nc(Cl)nc32)C(O)C1O | - | MIC | - | MTT | My 331/88 | 62.5 µM
COc1ccc(S(=O)(=O)NC(=S)S)cc1 | - | MIC bound | - | BACTEC | H37Rv | ≤128 µg/mL
CCCCSc1nc(C(N)=S)cnc1C(C)(C)C | - | inhibition | 12.5 µg/mL | - | H37Rv | <90%
OC[C@H]1O[C@@H](n2ccc3c(-c4cccc5c4oc4ccccc45)nc(F)nc32)C(O)C1O | - | MIC | - | MTT | My 331/88 | 32 µM
c1ccc2c(c1)ccc1c2nc2c3ccccc3[nH]n12 | - | MIC bound | - | BACTEC | H37Rv | ≤12.5 µg/mL
CCCSc1nc(C(N)=S)cnc1C(C)(C)C | - | inhibition | 12.5 µg/mL | - | H37Rv | <90%
CCCCCCCCCCCCSc1ccnc(C(N)=S)c1 | - | MIC | - | - | H37Rv | 60 µM
COc1ccc(CC(=S)N2CCOCC2)cc1Oc1ccc(CC(=S)N2CCOCC2)cc1 | - | MIC | - | - | H37Rv | 7.8–15.6 µg/mL
NC(=O)N/N=C/c1ccc2oc3ccccc3c2c1 | - | MIC bound | - | BACTEC | H37Rv | >12.5 µg/mL
COc1ccc(NC(=S)NNC(=O)c2ccncc2)cc1 | - | MIC | - | - | INH resistant | 10.31 µM
CCc1c(CNc2cc(C)ccc2OC)cnc2nc(N)nc(N)c12 | - | MIC | - | - | H37Rv | >12.5 µg/mL
CCCCCCCCCCCCCCCCSc1ccnc(C(N)=S)c1 | - | MIC | - | - | H37Rv | 2000 µM
Cc1nn(C(=O)c2cccnc2)c(-c2ccccc2)c1N=Nc1ccc(C(=O)O)cc1 | - | inhibition | 6.25 µg/mL | resazurin | H37Rv | 3%
Nc1nc(-c2ccco2)c2ccn([C@@H]3O[C@H](CO)C(O)C3O)c2n1 | - | MIC | - | MTT | My 331/88 | >250 µM
COc1cc(NCc2cnc3nc(N)nc(N)c3c2C)cc(OC)c1 | - | MIC | - | - | H37Rv | 12.5 µg/mL
O=C(NN1C(=O)C(Cl)C1c1ccc(Cl)cc1)c1ccccc1-c1nc2ccccc2[nH]1 | - | EC50 | - | - | H37Rv | <0.031 µg/mL
CCCSc1nc(C(N)=S)cnc1CC(C)C | - | inhibition | 12.5 µg/mL | - | H37Rv | 64%
C=C1C(=O)OC2CC1C(O)C/C(C)=C\CC/C(C)=C\C(O)CC2C | - | MIC bound | - | BACTEC | H37Rv | >12.5 µg/mL
C/C(=C/CO)CCC[C@H](C)CCC[C@H](C)CCCC(C)C | - | MIC | - | - | H37Rv | 2 µg/mL
O=[N+]([O-])c1ccc(N/N=C/c2c(O)ccc3ccccc23)nc1 | - | inhibition | 12.5 µg/mL | BACTEC | H37Rv | 15%
CN(C)c1ccc(/C=N/NC(=O)c2ccccc2-c2nc3ccccc3[nH]2)cc1 | - | inhibition | 0.031 µg/mL | - | H37Rv | 33%
O=C(NNC(=S)Nc1c(Cl)cccc1Cl)c1ccncc1 | - | MIC | - | - | INH resistant | 2.28 µM
Nc1ccc(N=Nc2cccc3c2Oc2ccccc2O3)c(N)n1 | - | MIC bound | - | BACTEC | H37Rv | >12.5 µg/mL
Oc1cc(Cl)ccc1Oc1ccc(Cl)cc1Cl | - | MIC | - | - | M307 (KATG S315T) | 20 µM
Cc1cccc(Nc2c[nH]c(=O)[nH]c2=O)c1 | - | MIC99 | - | turbidity | H37Rv | 20 µg/mL
Nc1nc(-c2ccsc2)c2ccn([C@@H]3O[C@H](CO)C(O)C3O)c2n1 | - | MIC | - | MTT | My 331/88 | >250 µM
O=C(NN1C(=O)C(Cl)C1c1ccc(Cl)cc1Cl)c1ccccc1-c1nc2ccccc2[nH]1 | - | EC50 | - | - | H37Rv | <0.031 µg/mL
COc1ccc(/C=N/Nc2nc(C)c3c(n2)Nc2ccccc2NC3=O)cc1 | - | inhibition | 12.5 µg/mL | BACTEC | H37Rv | 2%
COc1c(N2CCNC(C)C2)c(F)cc2c(=O)c(C(=O)O)cn(C3CC3)c12 | - | MIC50 | - | - | 23 isolates | 0.031 µg/mL
CCOC(=O)C(=O)Cc1nc2ccccc2[nH]c1=O | - | MIC bound | - | resazurin | H37Rv | >6.25 µg/mL
C=C1C(=O)OC2C1CCC(C)C1CCC(=O)C12C | - | MIC | - | - | H37Rv | 32 µg/mL
O=C1CCC2CCC(CC2)O1 | - | MIC | - | BACTEC | H37Rv | ≥12.5 µg/mL
CCOCn1ccc(NS(=O)(=O)c2ccc(N)cc2)nc1=O | Rifampicin-resistant | MIC | - | resazurin / fluorescence | Clinical isolate | 1.3 µM
Nc1c(S(=O)(=O)[O-])cc2cc(S(=O)(=O)[O-])ccc2c1N=Nc1ccc(-c2ccc(N=Nc3c(N)c(S(=O)(=O)[O-])cc4cc(S(=O)(=O)[O-])ccc34)c(S(=O)(=O)[O-])c2)cc1.[Na+].[Na+].[Na+].[Na+].[Na+] | - | inhibition | 12.5 µg/mL | BACTEC | H37Rv | 5%
O=C(N/N=C/c1ccc(Cl)cc1)c1ccccc1-c1nc2ccccc2[nH]1 | - | inhibition | 0.031 µg/mL | - | H37Rv | 42%

ECn: concentration that inhibits the pathogen or its effect by n%. Blank or dashed fields: not listed here. a–b is a range or a potency band. MIC bound comes from a single tested concentration. Inhibition is in % at the dose shown (toxicity tests: loss of growth or viability). Conditions beyond the fields shown may differ between rows.